# Data as given in PubChem BioAssay AID504761 (Drosophila RNAi Screening Center, 2011).
# Test: 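Insect host genes that dengue virus relies on to spread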 (primary screen)
# Cells: D.Mel-2 cells from Drosophila
# Knock-down reagent: long dsRNA against Drosophila genes
# Challenge: infection with dengue virus type 2; dose and infection time not stated
# Read-out: 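Per well on two replicate plates, imaging gave the percent of cells positive for viral envelope protein, ranked by infection, and a nuclear count of cells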
# Direction: infection score: higher = more virus-infected cells
# Active means: 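Very low infection ranking in both replicate wells (chance probability at most 0.065), then a retest showing infection dropped 1.5-fold or more at p below 0.05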
# Calls: active = confirmed: knock-down lowers infection; inactive = not picked or not confirmed
# The screen tested about 22,000 reagents; shown is a random part of those with a known target gene and a result. Over the whole deposit, 116 (0.52%) were called active. 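Calls depend on retest data that are not deposited; infection was ranked per plate without normalising between plates; the unit of the infection score is not given.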 Reagents against one gene are numbered here. A plus sign joins genes that one reagent is predicted to hit. Further read-outs or replicates are left out here. Not stated in the record: the amount of reagent, the time to read-out.
gene,dsRNA no.,"infection score, replicate 1","infection score, replicate 2",outcome
Snap29 (GeneID 37774),1,9.28,11.3,inactive
Snap29 (GeneID 37774),2,1.53,2.6,inactive
CG31229 (GeneID 318636),1,7.75,7.41,inactive
CG17141 (GeneID 42697),1,,9.48,inactive
CG18666 (GeneID 50441),1,2.41,2.56,inactive
Srp9 (GeneID 38883),1,1.21,3.67,inactive
polyph (GeneID 36161),1,9.14,15.4,inactive
CG4306 (GeneID 40017),1,8.16,1.37,inactive
CG4306 (GeneID 40017),2,21.8,6.09,inactive
CG32409 (GeneID 318016),1,4.04,10.2,inactive
CG32409 (GeneID 318016),2,2.99,7.25,inactive
eIF3j (GeneID 36037),1,10.1,6.31,inactive
CG11883 (GeneID 36121),1,18.6,17,inactive
M1BP (GeneID 41042),1,21.6,30.3,inactive
M1BP (GeneID 41042),2,22.8,25.1,inactive
CG12107 (GeneID 35712),1,16.9,21.8,inactive
CG31054 (retired record) (GeneID 318573),1,2.43,15.7,inactive
Uhg4 + snoRNA:Psi28S-2949,1,0.63,22.1,inactive
CG13054 (GeneID 39780),1,1.2,7.34,inactive
CG13054 (GeneID 39780),2,3.87,4.22,inactive
CG18048 (GeneID 40782),1,3.04,24.9,inactive
CG18048 (GeneID 40782),2,10.3,,inactive
CG9459 (GeneID 41213),1,1.59,8.4,inactive

Sorted by “infection score, replicate 2” (ascending): 2 of the entries above
gene,dsRNA no.,"infection score, replicate 1","infection score, replicate 2",outcome
eIF3j (GeneID 36037),1,10.1,6.31,inactive
CG32409 (GeneID 318016),2,2.99,7.25,inactive
